We go through 1 substance from US5629198A (priority 1991, dated 1997).

In one data set the test system is male ICR mice. Briefly: Repeated-administration toxicity test, 2 weeks (Test Example 10). Type of data set: in vivo. As to conditions: intravenous, 80, 200 and 500 mg/kg/day. The protocol:
S-HSA-EDC-Hemin was repeatedly administered for 2 weeks at doses of 80, 200 and 500 mg/kg/day in veins of male ICR mice (Charles River Japan, Inc., 15 mice per group) to observe its effects.

For data set [1], the system named is human peripheral blood lymphocytes (PBL), uninfected system. Briefly: Living cells in uninfected PBL system (Test Example 7). The format is cell-based. As to conditions: 200 μg/ml. On the procedure:
The anti-HIV effects of test substances on human peripheral blood lymphocytes infected with HIV were determined.
After blood is collected from a vein by a syringe whose interior wall is wetted with heparin, PBL is separated from the blood with Ficol. After this PBL cell is inoculated on a 25-cm^2 culture flask containing 10 ml of a RPMI 1640 medium (including IL-2) added with 20% of a fetal bovine serum so as to contain 7×10^5 cells/ml therein, 40 μl (1 mg/ml) of PHA are added to culture the cells for 2 days. After 2 days, the cells are washed. Thereafter, they are used in assaying the anti-HIV effects of the test substances as PBL cells in an HIV-uninfected system for part of them, and in an HIV-infected system for the remainder. The PBL cells are inoculated on a 25-cm^2 culture flask added with 5 ml of the above medium so as to contain 2×10^6 cells therein. Then, 500 μl (final concentration: 200 μg/ml) of S-HSA-EDC-Hemin are given thereto so as to conduct culture at 37° C. in the presence of 5% CO2, thereby assaying the cytotoxic effect of the test substance. With respect to the infected system on the other hand, 0.5 ml of HTLV-IIIB (10^7 TCID50 /ml) obtained from a culture supernatant of an HIV-persistently infected strain, MOLT-4/HTLV-IIIB is inserted in the PBL cells to culture them for 2 days. Thereafter, the cells are washed, and then inoculated on a 25-cm^2 culture flask added with 5 ml of the medium so as to contain 2×10^6 cells therein. In the same manner as described above, S-HSA-EDC-Hemin is given thereto, thereby conducting culture at 37° C. in the presence of 5% CO2. After 4 days, the number of cells are counted to calculate the number of HIV envelope protein gp120 positive cells, analysis making use of FACS and the quantity of P24 protein produced.

The subject of data set [2] is MOLT-4. The data set can be described thus: Killing effect on uninfected cells (Test Example 1), trypan blue. Type of data set: cell-based, human. As to conditions: 3 days. On the procedure:
The cell killing effects of test substances were determined using a cell strain persistently infected with HIV in MOLT-4 cells and MOLT-4 cells.
MOLT4/HTLV-IIIB, MOLT4/ARV and MOLT4 cell strains were separately inoculated in proportions of 4×10^4 cells/well (200 μl) on a 96-well plate, and the above test substances in various concentrations were separately added in an amount of 20 μl thereto. After each cell sample was cultured for 3 days at 37° C. in the presence of 5% CO2, the culture was diluted to a triple or quadruple amount, thereby counting the number of living cells by a trypan blue dye exclusion test. As a control, 20 μl of PBS were added in place of each test substance. Each numerical value is expressed in terms of the percentage of living cells to the control.

A further data set has as its system HTLV-IIIB in MT-4 cells. Briefly: Anti-HIV effect: TCID50 of infectious virus from infected MT-4 cells (Test Example 5). The format is cell-based, HIV (HTLV-IIIB). As to conditions: 37.9 μg/ml, 4 days; positive control 3.31 × 10^7. On the procedure: The inhibitory effects of test substances on the cytopathy and HIV antigen production of MT-4 cells due to HIV infection were determined.
MT-4 cells belonging to a cell strain persistently infected with HTLV-1 are high in sensitivity to HIV and promptly die out when infected. MT-4/HIV cells which are MT-4 cells infected with HIV are used for screening anti-HIV agents making good use of this nature.
After MT-4 cells (1.2×10^7 cells) were infected for 2 hours at 37° C. with 3.2 ml of HTLV-IIIB (10^7 TCID50 /ml) obtained from a culture supernatant of a cell strain persistently infected with HIV, i.e., […], the cells were washed. After the cells were then inoculated on a 48-well microplate in a proportion of 1×10^5 cells/well, the test substances were separately added in an amount of 100 μl. As a negative control, there was used a culture obtained by adding 3.2 ml of a culture supernatant after culturing MOLT-4 cells for 3 days to MT-4 cells (4.7×10^6 cells), conducting culture for 2 hours at 37° C., washing the cells in the same manner as described above, inoculating them in a proportion of 1×10^5 cells/well and adding PBS in place of the test substances.
Upon elapsed time of 4 days after the culture, each supernatant was assayed on a P24gag protein based on an EIA kit produced by Abbott Labs, and the number of living cells was counted by the Trypan Blue dye exclusion method, and moreover, TCID50 indicative of an actual quantity of infectious virus was calculated.

In a further data set the test system is MOLT-4/HTLV-IIIB. The data set can be described thus: Killing effect (Test Example 2). Type of data set: cell-based, human. Particulars: 24 hours then 2 days, 4320 min. On the procedure: (§1) The killing effect and cytotoxic effect of a test substance were determined using human peripheral blood lymphocytes and MOLT-4 cells.
(§2) After MOLT-4/HTLV-IIIB cells and MOLT-4 cells were dosed with S-HSA-EDC-Hemin in various concentrations and cultured for 24 hours, S-HSA-EDC-Hemin was removed, and the cells were cultured further for 2 days to count the number of living cells.

Data set [3] deals with MOLT-4. Briefly: Killing effect (Test Example 2). The format is cell-based, human. Particulars: 24 hours then 2 days, 4320 min. On the procedure: as §1, §2

In the case of “S--HSA--EDC-Hemin: complex of succinylated human serum albumin and EDC-Hemin”, the “signs on the seventh to ninth day” value with male ICR mice is “transient piloerection, reduction in ultromotivity and pronation were found here and there in each dose group”. Besides, in data set [1] (after 4 days), the “living cells in uninfected system, % of the control” value came out at 45%. In addition, the figures for the “Total number of living cells, uninfected system” value in data set [1] (day 0 of culture) and in data set [1] (day 4 of culture (untreated 19.1)) were 2.0 ×10^6 and 8.6 ×10^6, respectively. Besides, the “living cells (percentage to the control)” value in the data set on MOLT-4 [2] (37.9 μg/ml) was 104%; in the data set on MOLT-4 [2] (75.8 μg/ml), 45%; with MOLT-4 [2] (113.7 μg/ml), 2%. Further, in the data set with HTLV-IIIB in MT-4 cells, the “TCID50 (quantity of infectious virus)” value is given as 2.82 × 10^4 TCID50 /ml. Moreover, the “living cells (control 100%)” value in the data set with MOLT-4/HTLV-IIIB (75.8 μg/ml) was found to be 3%; in the data set with MOLT-4/HTLV-IIIB (151.6 μg/ml) it was 0%; in the data set on MOLT-4/HTLV-IIIB (303.2 μg/ml) it was 0%; in the data set on MOLT-4/HTLV-IIIB (606.4 μg/ml), 0%; in the data set on MOLT-4 [3] (75.8 μg/ml), 6%; with MOLT-4 [3] (151.6 μg/ml), 0%. In addition, the “living cells (control 100%)” value with MOLT-4 [3] (303.2 μg/ml) and in the data set with MOLT-4 [3] (606.4 μg/ml) was 0% in each case.
